Assay results as given in patent publication US8829030B2 (priority 2002, dated 2014).

By UniProt entry, the sequences of proteins in these tests, tags left out. Residues count along the entry.
UniProt P26663, 2420-3010 limits assumed: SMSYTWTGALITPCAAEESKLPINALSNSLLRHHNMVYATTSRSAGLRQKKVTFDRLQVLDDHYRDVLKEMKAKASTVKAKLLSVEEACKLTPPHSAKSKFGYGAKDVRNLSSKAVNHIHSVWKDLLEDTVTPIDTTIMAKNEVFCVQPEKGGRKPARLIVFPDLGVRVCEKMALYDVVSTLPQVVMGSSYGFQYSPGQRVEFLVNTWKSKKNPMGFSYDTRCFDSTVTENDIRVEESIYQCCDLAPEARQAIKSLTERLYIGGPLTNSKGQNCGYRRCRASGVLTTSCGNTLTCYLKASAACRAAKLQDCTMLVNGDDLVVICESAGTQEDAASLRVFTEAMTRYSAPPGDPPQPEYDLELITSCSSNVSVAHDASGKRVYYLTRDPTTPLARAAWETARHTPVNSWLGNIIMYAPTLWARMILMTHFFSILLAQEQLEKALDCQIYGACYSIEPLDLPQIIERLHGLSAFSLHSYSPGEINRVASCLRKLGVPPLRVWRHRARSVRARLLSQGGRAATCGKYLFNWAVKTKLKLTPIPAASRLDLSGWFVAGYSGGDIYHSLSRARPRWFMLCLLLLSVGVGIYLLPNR

Each compound was assayed against recombinant HCV RNA-dependent RNA polymerase (NS5B protein) (Hepatitis C virus genotype 1b, UniProt P26663) (assay: In vitro HCV RdRp Flashplate scintillation proximity assay (STREP-FLASH ASSAY)). Conditions: read-out: Activity (polymerase activity, IC50); 100 nM recombinant HCV NS5B, 25 μM UTP, polyrA/biotinylated-oligo dT, 2 hrs at room temperature.
Type: biochemical, HCV-Bk strain

Structure (SMILES)	IC50
CC1CCC(C(=O)N(c2cc(-c3ccccc3)sc2C(=O)O)C2CC[N+](C)([O-])CC2)CC1 (stereo not drawn)	< 5 µM
CC1CCC(C(=O)N(c2cc(-c3ccccc3)sc2C(=O)O)C2CCN(C(C)C)CC2)CC1 (stereo not drawn)	< 5 µM
Cc1ccc(-c2cc(N(C(=O)C3CCC(C)CC3)C3CC[NH+](C)CC3)c(C(=O)O)s2)cc1 (stereo not drawn)	< 5 µM
CC1CCC(C(=O)N(c2cc(-c3cccc(F)c3)sc2C(=O)O)C2CCN(C)CC2)CC1 (stereo not drawn)	< 5 µM
CC1CCC(C(=O)N(c2cc(-c3ccc(C#N)cc3)sc2C(=O)O)C2CCN(C)CC2)CC1 (stereo not drawn)	< 5 µM
CC1CCC(C(=O)N(c2cc(-c3ccc([N+](=O)[O-])cc3)sc2C(=O)O)C2CCN(C)CC2)CC1 (stereo not drawn)	< 5 µM
CC1CCC(C(=O)N(c2cc(-c3ccccc3)sc2C(=O)O)C2CCN(Cc3ccccc3)CC2)CC1 (stereo not drawn)	< 5 µM
CC1CCC(C(=O)N(c2cc(-c3ccc(F)cc3)sc2C(=O)O)C2CCN(C)CC2)CC1 (stereo not drawn)	< 5 µM
COc1ccc(-c2cc(N(C(=O)C3CCC(C)CC3)C3CCN(C)CC3)c(C(=O)O)s2)cc1 (stereo not drawn)	< 5 µM
CN1CCC(N(c2cc(-c3ccccc3)sc2C(=O)O)C(=O)[C@H]2CC[C@H](C)CC2)CC1	< 5 µM
CCN1CCC(N(C(=O)C2CCC(C)CC2)c2cc(-c3ccccc3)sc2C(=O)O)CC1 (stereo not drawn)	< 5 µM
CC1CCC(C(=O)N(c2cc(-c3ccc(Cl)cc3)sc2C(=O)O)C2CCN(C)CC2)CC1 (stereo not drawn)	< 5 µM

This is a selection: effects in other tests are not listed, and their absence says nothing.
